Measured values taken from paper PMC12434534, “Synthesis and Antiviral Evaluation of Unexplored Dioxolane-Derived 7‑Deazapurine Nucleoside Analogues against Epstein–Barr Virus (EBV)” (ACS Medicinal Chemistry Letters, 2025).

System: HIV-FL
Conditions: selectivity index = CC50/EC50, TZM-GFP cells
Procedure: First, TZM-GFP cells were seeded in the 96-well plate (10 000/well), and after 24 h, selected compounds and HIV FL virus (MOI = 0.1) were added to the plate. […] At 48 h post-infection (hpi), GFP production due to infection was measured by Cytation 5, and a 50% reduction in efficacy (EC50) and cell viability (CC50) were determined using GraphPad software (San Diego, CA, USA, www.graphpad.com). […]
(10,000/well), and after 24 h, selected compounds and HIV FL (MOI=0.1) virus were added to the […]
plate. […] At 48 h post-infection (hpi), the GFP cells were measured by Cytation 5, and a 50% reduction in efficacy (EC50) and cell viability (CC50) was determined using GraphPad software (San Diego, California, www.graphpad.com). […]
Evaluation of Cytotoxicity: The cytotoxic effects of test compounds for P3HR1 and TZN-GFP cells were determined by CellTiter 96 Non-Radioactive Cell Proliferation assay system (Promega) using either 2,3-Bis-(2-Methoxy-4-nitro-5-sulfophenyl)-2H-tetrazolium-5-carboxanilide, disodium salt (XTT) or 3- (4,5-dimethylthiazol-2-yl)-2,5-diphenyltetrazolium bromide (MTT) methods under the same conditions as the antiviral assay but in the absence virus. Cells were seeded at a density of 1 x 105 (P3HR-1) or 2 x 104 (TZM-GFP) cells per well in 96-well plates and […]

## Nc1ncnc2c1ccn2[C@H]1CO[C@@H](CO)O1 [Compound 12]
  SI (CC50/EC50), HIV-FL: >17

## Nc1ncnc2c1c(F)cn2[C@H]1CO[C@@H](CO)O1 [Compound 13]
  SI (CC50/EC50), HIV-FL: >25.2
